A mixed list of measured activities; the numbers were collected in NIAID ChemDB.

All rows: growth or infection tests; species: HIV-1

Blank or dashed fields: not listed here. ECn is the concentration giving n% inhibition of infection, replication or growth. Conditions beyond the fields shown may differ between rows.

O=C(c1ccccc1)n1c(=O)ccn([C@H]2C=CC3(CC2)O[C@H](c2ccccc2)[C@@H](c2ccccc2)O3)c1=O ; cell line: MT-4 ; strain: NL4-3 ; method: MTT ; read-out: EC50 ; value: >25 µg/mL
Cc1c(Cc2c(F)cccc2F)nc(NN2CCC(C)CC2)[nH]c1=O ; cell line: MT-4 ; strain: NL4-3 ; method: MTT ; read-out: EC50 ; value: 0.1 µM
C=C(C)[C@@H]1CC[C@]2(NC(=O)NC)CC[C@]3(C)[C@H](CC[C@@H]4[C@@]5(C)CC[C@H](OC(=O)CC(C)(C)C(=O)O)C(C)(C)[C@@H]5CC[C@]43C)[C@@H]12 ; cell line: MT-2 ; strain: IIIB ; method: RT activity ; read-out: EC50 ; value: >0.199 µM
Nc1nc2c(ncn2[C@@H]2O[C@H](CO)[C@@H](O)[C@H]2C(F)(F)F)c(=O)[nH]1 ; read-out: EC50 ; value: >100 µM
CC(C)(C)[Si](C)(C)OC[C@H]1O[C@@H](n2ccc(=O)[nH]c2=O)[C@H](O[Si](C)(C)C(C)(C)C)C12OS(=O)(=O)C=C2N ; cell line: MT-4 ; strain: IIIB ; method: cytopathic effect / trypan blue ; read-out: EC50 ; value: >1.6 µg/mL
Cc1c(C(C)c2ccc3ccccc3c2)n(COCc2ccccc2)c(=O)[nH]c1=O ; cell line: MT-4 ; strain: IIIB ; method: MTT ; read-out: EC50 ; value: >312 µM
O=C(CCSc1nnnn1-c1cccc2ccccc12)Nc1ccccc1[N+](=O)[O-] ; cell line: MT-4 ; method: p24 ; read-out: EC95 ; value: <10 µM
CCCC(CCC)(NP(=O)(OC[C@@H]1C=C[C@H](n2cc(C)c(=O)[nH]c2=O)O1)Oc1ccccc1)C(=O)OC ; cell line: CEM ; read-out: EC50 ; value: ≥50 µM
CC(C)C1=C2[C@H]3CC[C@@H]4[C@@]5(C)CC[C@H](OC(=O)[C@H]6C[C@@H](C(=O)O)C6(C)C)C(C)(C)[C@@H]5CC[C@@]4(C)[C@]3(C)CC[C@@]2(CCNCc2nccn2C)CC1=O ; cell line: MT-2 ; strain: 92HT599 ; method: p24 / ELISA ; read-out: EC50 ; value: <1 µM
CCC(CC)(NP(=O)(OC[C@@H]1C=C[C@H](n2cc(C)c(=O)[nH]c2=O)O1)Oc1ccccc1)C(=O)OC ; cell line: CEM ; read-out: EC50 ; value: 30 µM
O=S(=O)(O)OCC1OC2OC3C(COS(=O)(=O)O)OC(OC4C(COS(=O)(=O)O)OC(OC5C(COS(=O)(=O)O)OC(OC6C(COS(=O)(=O)O)OC(OC7C(COS(=O)(=O)O)OC(OC8C(COS(=O)(=O)O)OC(OC9C(COS(=O)(=O)O)OC(OC1C(OS(=O)(=O)O)C2OS(=O)(=O)O)C(OS(=O)(=O)O)C9OS(=O)(=O)O)C(OS(=O)(=O)O)C8OS(=O)(=O)O)C(OS(=O)(=O)O)C7OS(=O)(=O)O)C(OS(=O)(=O)O)C6OS(=O)(=O)O)C(OS(=O)(=O)O)C5OS(=O)(=O)O)C(OS(=O)(=O)O)C4OS(=O)(=O)O)C(OS(=O)(=O)O)C3OS(=O)(=O)O ; cell line: MT-4 ; strain: IIIB ; method: cytopathic effect / MTT ; read-out: EC50 ; value: 0.2 µg/mL
CC1(C)Oc2ccc3ccc(=O)oc3c2[C@@H](OC(=O)C23CCC(C)(C(=O)O2)C3(C)C)[C@H]1OC(=O)C12CCC(C)(C(=O)O1)C2(C)C ; mutations: RT-G550K ; cell line: MT-4 ; strain: NL4-3 ; method: p24 ; read-out: EC50 ; value: 0.072 µM
[2H]C(CN)(NC(=O)c1ccc(Cl)cc1)C(=O)NC[C@H](O)[C@@]12CC[C@]3(C)[C@H](CC[C@@H]4[C@@]5(C)CC[C@H](OC(=O)[C@H]6C[C@@H](C(=O)O)C6(C)C)C(C)(C)[C@@H]5CC[C@]43C)C1=C(C(C)C)C(=O)C2 ; cell line: MT-2 ; strain: 92HT599 ; method: p24 / ELISA ; read-out: EC50 ; value: <1 µM
Nc1ncnc2c1ncn2[C@@H]1C=C(F)[C@H](CO)[C@H]1CO ; cell line: MT-2 ; strain: IIIB ; method: MTT ; read-out: EC50 ; value: >1 µM
Cc1cc(CNC(=O)C[C@@]23CC[C@]4(C)[C@H](CC[C@@H]5[C@@]6(C)CC[C@H](OC(=O)[C@H]7C[C@@H](C(=O)O)C7(C)C)C(C)(C)[C@@H]6CC[C@]54C)C2=C(C(C)C)C(=O)C3)n[nH]1 ; cell line: MT-2 ; strain: 92HT599 ; method: p24 / ELISA ; read-out: EC50 ; value: <1 µM
Cc1nc(CCCCCCC(=O)c2ccccc2)n2nc(NCCCCCCCCNCc3cn([C@H]4C=C[C@@H](CO)O4)c(=O)[nH]c3=O)ccc12 ; cell line: PBMC ; strain: IIIB ; method: RT activity ; read-out: EC50 ; value: 0.1 µM
CC(C)C1=C2[C@H]3CC[C@@H]4[C@@]5(C)CC[C@H](OC(=O)[C@H]6C[C@@H](C(=O)O)C6(C)C)C(C)(C)[C@@H]5CC[C@@]4(C)[C@]3(C)CC[C@@]2([C@@H](O)CNC(=O)c2ccc3ccccc3n2)CC1=O ; cell line: MT-2 ; strain: 92HT599 ; method: p24 / ELISA ; read-out: EC50 ; value: <1 µM
Cc1cc(C)c(-n2nnnc2SCC(=O)Nc2cccc(Br)n2)c(C)c1 ; cell line: MT-4 ; method: p24 ; read-out: EC95 ; value: <10 µM
C=C(C)[C@@H]1CC[C@]2(NC(=O)C(C)C)CC[C@]3(C)[C@H](CC[C@@H]4[C@@]5(C)CC[C@H](OC(=O)CC(C)(C)C(=O)O)C(C)(C)[C@@H]5CC[C@]43C)[C@@H]12 ; cell line: MT-2 ; strain: IIIB ; method: RT activity ; read-out: EC50 ; value: >0.199 µM
Nc1ncnc2c1ncn2C1OC(COP(=O)(O)OC2C(O)C(COP(=O)(O)OC3CC(CO)OC3n3cnc4c(N)ncnc43)OC2n2cnc3c(N)ncnc32)CC1O ; cell line: H9 ; strain: IIIB ; method: p24 ; read-out: EC50 ; value: <1 µM
O=C1C=C[C@@H](n2cnc3c(Cl)ncnc32)CC1 ; cell line: MT-4 ; strain: NL4-3 ; method: MTT ; read-out: EC50 ; value: >0.5 µg/mL
Cc1ccc(C(C)c2c(C)c(=O)[nH]c(=O)n2COCc2ccccc2)cc1 ; cell line: MT-4 ; strain: IIIB ; method: MTT ; read-out: EC50 ; value: >343 µM
Cc1ccccc1-n1nnnc1SCC(=O)Nc1ccccc1Cl ; cell line: MT-4 ; method: p24 ; read-out: EC95 ; value: <10 µM
CCOC(=O)COP(=O)([O-])OCC[NH2+]C ; cell line: C8166 ; method: antigen ; read-out: EC50 ; value: 100 µM
Nc1ncnc2c1ncn2[C@@H]1O[C@H](COP(=O)([O-])O[C@@H]2C[C@@H](COP(=O)([O-])O[C@@H]3C[C@@H](COP(=O)([O-])O)O[C@H]3n3cnc4c(N)ncnc43)O[C@H]2n2cnc3c(N)ncnc32)[C@@H](O)[C@H]1O ; cell line: H9 ; strain: IIIB ; method: p24 ; read-out: EC50 ; value: >1 µM
COC(=O)C(C)(C)NP(=O)(OC[C@@H]1C=C[C@H](n2cc(C)c(=O)[nH]c2=O)O1)Oc1ccccc1 ; cell line: CEM ; read-out: EC50 ; value: 0.29 µM
CCOCc1cn([C@H]2C=C[C@@H](CO)O2)c(=O)[nH]c1=O ; cell line: MT-4 ; strain: IIIB ; method: RT activity ; read-out: EC50 ; value: 6 µM
CC(=O)NS(=O)(=O)c1c(C)cc(C)c(-c2c3nc(c(-c4c(C)cc(C)c(S(=O)(=O)NC(C)=O)c4C)c4ccc([nH]4)c(-c4c(C)cc(C)c(S(=O)(=O)NC(C)=O)c4C)c4nc(c(-c5c(C)cc(C)c(S(=O)(=O)NC(C)=O)c5C)c5ccc2[nH]5)C=C4)C=C3)c1C ; cell line: MT-4 ; strain: IIIB ; method: cytopathic effect / MTT ; read-out: EC50 ; value: 9 µg/mL
Cc1cccc(C(C)(O)c2c(C)c(=O)[nH]c(=O)n2COCc2ccccc2)c1 ; cell line: MT-4 ; strain: IIIB ; method: MTT ; read-out: EC50 ; value: 37.48 µM
CCCCCCCCCCCCCCC(=O)OC[C@H]1O[C@@H](n2cc(C)c(=O)[nH]c2=O)C[C@@H]1N=[N+]=[N-] ; cell line: SupT1 ; strain: IIIB ; read-out: EC50 ; value: >100 µg/mL
CC(C)C1=C2[C@H]3CC[C@@H]4[C@@]5(C)CC[C@H](OC(=O)[C@H]6C[C@@H](C(=O)O)C6(C)C)C(C)(C)[C@@H]5CC[C@@]4(C)[C@]3(C)CC[C@@]2([C@@H](O)CNC(=O)C(C)(C)NC(=O)CN2CCCCC2)CC1=O ; cell line: MT-2 ; strain: 92HT599 ; method: p24 / ELISA ; read-out: EC50 ; value: <1 µM
O=c1[nH]c(=O)n([C@H]2C=C[C@@H](CO)O2)cc1CO ; cell line: CEM + CEM-SS ; strain: Nevirapine-resistant ; method: RT activity ; read-out: EC50 ; value: 0.2 µM
C=C(C)[C@@H]1CC[C@]2(NC(=O)N3CCOCC3)CC[C@]3(C)[C@H](CC[C@@H]4[C@@]5(C)CC[C@H](OC(=O)CC(C)(C)C(=O)O)C(C)(C)[C@@H]5CC[C@]43C)[C@@H]12 ; cell line: MT-2 ; strain: IIIB ; method: RT activity ; read-out: EC50 ; value: >0.199 µM
Cc1nc(CCCCCCC(=O)c2ccccc2)n2nc(NCCCCCCCCCCCCNCc3cn([C@H]4C=C[C@@H](CO)O4)c(=O)[nH]c3=O)ccc12 ; cell line: CEM + CEM-SS ; strain: LAI ; method: RT activity ; read-out: EC50 ; value: 0.037 µM
C=C(C)[C@@H]1CC[C@]2(NC(=O)NCc3ccccc3)CC[C@]3(C)[C@H](CC[C@@H]4[C@@]5(C)CC[C@H](OC(=O)CC(C)(C)C(=O)O)C(C)(C)[C@@H]5CC[C@]43C)[C@@H]12 ; cell line: MT-2 ; strain: IIIB ; method: RT activity ; read-out: EC50 ; value: >0.199 µM
C#CCOCc1cn(C2CCON2C(=O)OCc2ccccc2)c(=O)[nH]c1=O ; cell line: CEM-GFP ; strain: NL4-3 ; method: fluorescence ; read-out: EC50 ; value: 0.69 µM
Cc1nc(CCCCCCC(=O)c2ccccc2)n2nc(NCCCCCCCCCCCCN)ccc12 ; cell line: PBMC ; strain: IIIB ; method: RT activity ; read-out: EC50 ; value: >10 µM
O=C(c1ccccc1)n1c(=O)ccn([C@@H]2C=C[C@@H](O)CC2)c1=O ; cell line: MT-4 ; strain: NL4-3 ; method: MTT ; read-out: EC50 ; value: >25 µg/mL
C=C(c1cc(OC)cc(OC)c1)c1c(C)c(=O)[nH]c(=O)n1COCc1ccccc1 ; cell line: MT-4 ; strain: IIIB ; method: MTT ; read-out: EC50 ; value: 5.27 µM
Cc1cc(C)c(-n2nnnc2SCC(=O)Nc2ccccc2N)c(C)c1 ; cell line: MT-4 ; method: p24 ; read-out: EC95 ; value: <10 µM
CC(C)C1=C2[C@H]3CC[C@@H]4[C@@]5(C)CC[C@H](OC(=O)[C@H]6C[C@@H](C(=O)O)C6(C)C)C(C)(C)[C@@H]5CC[C@@]4(C)[C@]3(C)CC[C@@]2([C@@H](O)CNC(=O)[C@@H]2CCCCN2)CC1=O ; cell line: MT-2 ; strain: 92HT599 ; method: p24 / ELISA ; read-out: EC50 ; value: <1 µM
O=c1ccn([C@@H]2C=C[C@H](O)CC2)c(=O)[nH]1 ; cell line: MT-4 ; strain: NL4-3 ; method: MTT ; read-out: EC50 ; value: >25 µg/mL
CC(=O)SCCOP(=O)(OCCSC(C)=O)OC[C@@H]1CC[C@H](n2ccc(N)nc2=O)O1 ; cell line: MOLT-4/8 + MOLT-4 ; strain: RF ; method: MTT / p24 ; read-out: EC50 ; value: 0.93 µM
CCCCCSCCCCCCCC(=O)OC[C@H]1O[C@@H](n2cc(C)c(=O)[nH]c2=O)C[C@@H]1F ; cell line: SupT1 ; strain: IIIB ; read-out: EC50 ; value: >100 µg/mL
Nc1ncnc2c1ncn2[C@@H]1C=C(I)[C@H](CO)[C@H]1CO ; cell line: MT-2 ; strain: IIIB ; method: MTT ; read-out: EC50 ; value: >1 µM
O=C(OCc1ccccc1)N1OCCC1n1cc(COCc2cn(CCO)nn2)c(=O)[nH]c1=O ; cell line: CEM-GFP ; strain: NL4-3 ; method: fluorescence ; read-out: EC50 ; value: 103 µM

4 of the rows above, restated:

structure | mutations | cell line | strain | method | read-out | value
CCCCCCCCCCCCCCC(=O)OC[C@H]1O[C@@H](n2cc(C)c(=O)[nH]c2=O)C[C@@H]1N=[N+]=[N-] |  | SupT1 | IIIB |  | EC50 | >100 µg/mL
Cc1cc(CNC(=O)C[C@@]23CC[C@]4(C)[C@H](CC[C@@H]5[C@@]6(C)CC[C@H](OC(=O)[C@H]7C[C@@H](C(=O)O)C7(C)C)C(C)(C)[C@@H]6CC[C@]54C)C2=C(C(C)C)C(=O)C3)n[nH]1 |  | MT-2 | 92HT599 | p24 / ELISA | EC50 | <1 µM
[2H]C(CN)(NC(=O)c1ccc(Cl)cc1)C(=O)NC[C@H](O)[C@@]12CC[C@]3(C)[C@H](CC[C@@H]4[C@@]5(C)CC[C@H](OC(=O)[C@H]6C[C@@H](C(=O)O)C6(C)C)C(C)(C)[C@@H]5CC[C@]43C)C1=C(C(C)C)C(=O)C2 |  | MT-2 | 92HT599 | p24 / ELISA | EC50 | <1 µM
Cc1cc(C)c(-n2nnnc2SCC(=O)Nc2cccc(Br)n2)c(C)c1 |  | MT-4 |  | p24 | EC95 | <10 µM